The text below walks through data of patent US20070161078A1.

Broadly, the EC50 is the concentration giving half of the maximal effect. Read a low EC50 as greater potency.

The target in assay [1] is MBP.NS1 H5N1A (EPEV) (influenza A H5N1) (UniProt O56264). The experiment in a line: direct binding assay titration.
Assay [2] has the same target. The experiment in a line: G assay titration.
The target is the same in assay [3]. The experiment in a line: titration, direct binding sandwich assay.
Assay [4] concerns the target Peptide 1958 H5N1A (EPEV) (influenza A H5N1). The experiment in a line: G assay titration.
Assay [5] concerns the target influenza A NS1, C-terminus ESEI (influenza A).
In assay [6] the target is influenza A NS1, C-terminus ESKV (influenza A).

Take DLG1 d1,2 (from UniProt Q12959 218-410): the EC50 in assay [1] is more than 100 µg/mL; in assay [2] it was 23 µg/mL.

For “PSD95 d1,2,3 (from UniProt P78352 59-402)”, the EC50 in assay [1] is 15.7 µg/mL; in assay [3], 15.8 µg/mL; in assay [4], 4.1 µg/mL; in assay [2], more than 100 µg/mL.

In the case of PSD-95 (from UniProt P78352 59-402), the affinity came out at 200 nM in assay [5] and 45 nM in assay [6].
